PubChem BioAssay AID1224833, University of Georgia | 2016

- Assay: 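Host factors restraining rotavirus as candidate antiviral genes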 (primary screen)
- Cells: monkey MA104 kidney cells
- Reagents: siRNA pool against human genes, 50 nM
- Duration: 48 h knock-down before infection; read 24 h after infection
- Treatment: infection with rotavirus strain RV3 two days after transfection; infectious dose for this stage not given
- Read-out: 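Rotavirus antigen per well by fluorescent immunoassay, normalised to non-targeting control wells on each plate and given as a standard z-score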
- Scale: z-score vs non-targeting control: higher = more rotavirus replication than with non-targeting control
- Call rule: In these data the active calls have z-score vs non-targeting control at about -1 or lower, or at about 1 or higher
- Calls: active = z-score beyond 1 either way; inactive = z-score within 1 of zero
The deposit covers about 12,000 reagents; below is a random part of them. In the full data, about 5,600 (46%) are marked active. 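Active calls cover z-scores past 1 in both directions, so they include lowered as well as raised rotavirus replication.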 A number with no mark means an inactive call.

target | z-score vs non-targeting control
ICAM2 | 0.47
MAGEB1 | -0.371
C14orf93 | -2.48 (active)
RTL5 | -1.15 (active)
TMIGD2 | -1.48 (active)
CCM2 | -1.18 (active)
TCF7 | -2.1 (active)
TGM1 | -1.46 (active)
RTKN2 | -0.394
DEFA1 | -1.64 (active)
DLK2 | -0.397
GLP1R | 0.508
BORCS5 | 0.822
DNAAF8 | -1.01 (active)
GET1 | -1.26 (active)
TYW5 | -0.635
CCDC89 | -0.514
MYO1B | -1.35 (active)
GOLGA2 | -2.31 (active)
MYL10 | -0.592
XKRX | -0.478
KRT2 | -0.0309
LAMTOR1 | 1.39 (active)
ZNF551 | 0.129

Targets listed so far whose target name starts with D or d:
target | z-score vs non-targeting control
DEFA1 | -1.64 (active)
DLK2 | -0.397
DNAAF8 | -1.01 (active)

Further results follow:
target | z-score vs non-targeting control
ASTN2 | -0.828
PLA2G1B | -2.54 (active)
RBFOX2 | -1.97 (active)
THRSP | -2.96 (active)
OR2T5 | 0.214
SATL1 | -0.23
KRT14 | -0.105
JMJD6 | 0.65
PLIN2 | 1.19 (active)
CYP4A22 | -0.972
ZMYND10 | -2.49 (active)
OR2Z1 | 0.321
ZNF23 | 0.794
FNDC7 | -2.7 (active)
DDX31 | -2.41 (active)
CD226 | -1.21 (active)
SMIM11 | -0.0731
DSG3 | 0.28
SLC39A5 | -0.395
TPD52L1 | -1.12 (active)
MRPL14 | -1.05 (active)
